# In US20190359693A1, “Binding molecules directed against influenza hemagglutinin and uses thereof” (published 2019):
# Columns and labels:
# [1] = target: HA of H1N1 A/California/07/2009 (influenza A virus); test: cell-based or functional assay
# [2] = target: HA of H1N1 A/California/07/2009 (influenza A virus); test: AlphaLISA competition vs CR9114
# [3] = target: HA of H1N1 A/California/07/2009 (influenza A virus); test: AlphaLISA competition vs SD1038
substance,measurement,setting,value
SD1036 (VHH),VNA titer,[1],> 1000 nM
same,pIC50,[2],< 7
same,pIC50,[3],< 7
